Anti-infective test results gathered from many reports (values: NIAID ChemDB through PubChem).

All rows: tests in culture; organism: HIV-1

Two numbers with a dash give a range or band. ECn is the concentration giving n% inhibition of infection, replication or growth. Lines come from different laboratories, so protocols vary. An empty or dashed field is not shown.

SMILES,read-out,method,cell line,changes,strain,result
C=C1[C@H](CO)[C@@H](O)C[C@@H]1n1cnc2c(=O)[nH]c(N)nc21,EC50,MTT,MT-4,K103N + Y181C,RES056,0.034 µM
O=C(/C=C/c1ccc(O)c(O)c1)OCCOC(=O)/C=C/c1ccc(O)c(O)c1,EC50,cytopathic effect / XTT,CEM + CEM-SS,-,RF,>9.85 µM
CCC/C=C/c1ccc2c(c1)SC(=N)N1CCCN=C21,EC50,MTT,MT-4,-,IIIB,0.47 µM
Cc1cn([C@H]2C[C@H](N=[N+]=[N-])[C@@H](CO)O2)c(=O)[nH]c1=O,EC50,p24,PBMC,RT-M41L T215Y,R416-10 Clinical isolate ZDV-resistant,0.3 µM
Cc1csc(NC(=S)NC[C@H](C)c2ccccc2)n1,EC50,p24,PBMC,RT-Y181C K103N,NNRTI-resistant (RT Y181C K103N) A17V,1.1 µM
Cc1cn(C2CC(N=[N+]=[N-])C(CO)O2)c(=O)n([N+](=O)[O-])c1=O,EC50,-,-,-,NL4-3,0.032 µM
O=c1ccn([C@@H]2O[C@H](CO)C3(CO3)[C@H]2O)c(=O)[nH]1,EC50,RT activity,A301 + A3.01,-,-,22 µM
Nc1nc2c(ncn2CC(CO)OCP(=O)(O)O)c(=O)[nH]1,EC50,cytopathic effect / trypan blue,MT-4,-,IIIB,>100 µM
CC#C[C@@]1(CO)C=C[C@H](n2cc(C)c(=O)[nH]c2=O)O1,EC50,cytopathic effect / MTT,MT-2,-,IIIB,4 µM
Cc1ccc(NC(=S)N[C@H](C)c2cccc3ccccc23)nc1,EC50,p24,PBMC,-,IIIB,0.0023 µM
CC(C)Nc1cccnc1N1CCN(C(=O)c2cc3cc(NS(C)(=O)=O)ccc3[nH]2)CC1,EC50,p24,PBMC,-,IIIB,0.009 µM
CCOP(=O)(C[C@H]1C[C@@H](n2cc(C)c(=O)[nH]c2=O)ON1C)OCC,EC50,GFP,CEM,-,-,>1000 µM
Cc1cn([C@H]2C[C@H](F)[C@@H](CO)O2)c(=O)[nH]c1=O,EC50,p24,CEM,-,LAV,0.16–0.45 µM
Cc1cccc(NC(=S)N[C@H](C)c2ccccc2)n1,EC50,p24,PBMC,-,IIIB,0.025 µM
Cc1ccc(-c2ccc3c(c2)C=C(C(=O)Nc2ccc(C[N+](C)(C)C4CCOCC4)cc2)CCC3)cc1,EC50,p24,PBMC,-,JR-FL,0.01 µM
OC[C@@H]1[C@@H](O)[C@H](O)[C@H]2[C@H](O)CCN21,EC50,syncytia,JM,-,GB8,<500 µM
C[C@@H](NC(=S)Nc1ccc(Cl)cn1)c1cccc2ccccc12,EC50,p24,PBMC,RT-Y181C,NNRTI-resistant (RT Y181C) A17,0.043 µM
CCCN(C)C(=O)Oc1nsnc1-c1c(F)ccc(N)c1Cl,EC50,cytopathic effect / MTT,MT-4,-,-,0.0088 µg/mL
CCCCCn1c(=O)c2c(nc3n2CCCN3c2ccc(Oc3ccccc3)cc2)n(C)c1=O,EC50,β-galactosidase / absorbance,TZM-bl,-,NL4-3,>20 µM
Cc1cn([C@H]2C[C@H](N=[N+]=[N-])[C@@H](COC(=O)OCCCCCCOC3O[C@H](CO)[C@@H](O)[C@H](O)[C@@H]3O)O2)c(=O)[nH]c1=O,EC50,RT activity,CEM-113 + CEM/C113,-,-,>20 µg/mL
CCCCCCCSc1nsc(NC(=O)Nc2ccccc2)n1,EC50,cytopathic effect,MT-4,DS-resistant,NL4-3,19.4 µM
C[C@H](Cn1cnc2c(N)ncnc21)OCP(=O)(O)O,EC50,p24,MT-2,RT-Y181C,N119 (NNRTI-resistant RT Y181C),0.25 µM
Cc1cc(C)c(S(=O)(=O)/C=C/n2c(=O)c(C)cn(C3CC(N=[N+]=[N-])C(CO)O3)c2=O)c(C)c1,EC50,-,-,-,NL4-3,0.014 µM
Cc1ccnc2c1NC(=O)c1cccnc1N2C1CC1,EC95,-,MT-4,RT-K70R K101E,-,>3 µM
C[C@@H](Cn1cnc2c(N)nc(N)nc21)OCP(=O)(OCOC(=O)C(C)(C)C)OCOC(=O)C(C)(C)C,EC50,-,MT-2,-,IIIB,0.2 µM
Cc1cn([C@H]2C[C@H](N=[N+]=[N-])[C@@H](COC(=O)CCCCCCCCCCCBr)O2)c(=O)[nH]c1=O,EC50,-,CEM + CEM-SS,-,IIIB,0.0032 µM
Fc1ccc2nc3n(c2c1)C(c1c(F)cccc1F)SC3,EC50,cytopathic effect / MTT,MT-4,-,IIIB,14.7 µM
CC(=O)N[C@H](C(=O)N[C@@H](Cc1ccccc1)[C@@H](O)CN(CC1CCCCC1)NC(=O)[C@@H](NC(C)=O)C(C)C)C(C)C,EC90,RT activity,MT-2,-,LAV,1 µM
O=C(/C=C/c1ccc(O)c(O)c1)O[C@H]1CCCC[C@@H]1OC(=O)/C=C/c1ccc(O)c(O)c1,EC50,cytopathic effect / XTT,CEM + CEM-SS,-,RF,>5.67 µM
CCC(=C/[C@H](C)C/C=C/C(C)=C/[C@@H](C)C(=O)[C@@H](C)[C@H](O)[C@@H](C)C/C(C)=C/C(=O)O)/C=C/[C@@H]1OC(=O)C=C[C@@H]1C,EC50,p24,HeLa,-,BaL,0.0006 µM
CC(C)(C)OC(=O)N[C@@H](Cc1ccccc1)C[C@H](O)[C@H](Cc1ccccc1)NC(=O)c1ccc(N)c(O)c1,EC50,cytopathic effect / MTT,MT-4,-,IIIB,>11 µM
CC1(C)C(O[C@@H]2O[C@H](C(=O)O)[C@@H](O)[C@H](O)[C@H]2O[C@@H]2O[C@H](C(=O)O)[C@@H](O)[C@H](O)[C@H]2O)CC[C@]2(C)C3=CC=C4C5C[C@@](C)(C(=O)O)CC[C@]5(C)CC[C@@]4(C)[C@]3(C)CCC12,EC50,p24 / ELISA / antigen,MT-4,-,EVK,500 µg/mL
Fc1cc2nc3n(c2cc1F)C(c1c(F)cccc1F)SC3,EC50,cytopathic effect / MTT,MT-4,-,IIIB,>37.3 µM
N=C1Sc2cc(-c3ccc(OC(F)(F)F)cc3)ccc2C2=NCCCN12,EC50,MTT,MT-4,-,IIIB,1.1 µM
Cc1cn([C@H]2C[C@H](N=[N+]=[N-])[C@@H](COC(=O)CCCCCCCCCc3ccccc3)O2)c(=O)[nH]c1=O,EC50,-,CEM + CEM-SS,-,IIIB,0.1601 µM
Nc1ncnc2c1ncn2CCOCP(=O)(O)O,EC50,absorbance,MT-4,-,899A,2 µM
CC(C)[C@H](NC(=O)OCc1ccccc1)C(=O)N[C@@H](Cc1ccccc1)[C@@H](O)CN(Cc1ccccc1)NC(=O)[C@@H](NC(=O)OCc1ccccc1)C(C)C,EC50,RT activity,MT-2,-,LAV,<0.1 µM
[Li+],EC50,antigen,C8166,-,GUN1,>1000 µg/mL
C[C@H]1CN2CCC[C@H]3CCCCC[C@@H]4C(=O)[C@@H](C)CN5CCC[C@@H](CCCCC[C@H](C1=O)[C@@H]32)[C@H]45,EC50,syncytia,MT-2,-,MN,21.2 µM
CC(C)(C)OC(=O)N[C@@H](Cc1ccccc1)C[C@H](O)[C@H](Cc1ccccc1)NC(=O)c1c(Cl)cccc1Cl,EC50,cytopathic effect / MTT,MT-4,-,IIIB,10 µM
Nc1nc2c(ncn2CCOCP(=O)(O)O)c(=O)[nH]1,EC50,cytopathic effect / trypan blue,MT-4,-,IIIB,2.7 µM
CCCCCCCCCCCCC(Br)C(=O)OC[C@H]1O[C@@H](n2cc(C)c(=O)[nH]c2=O)C[C@@H]1N=[N+]=[N-],EC50,-,CEM + CEM-SS,-,IIIB,0.1275 µM
Cc1cn([C@@H]2O[C@@H]3[C@H](O)CO[C@]3(CO)[C@H]2O)c(=O)[nH]c1=O,EC50,-,MT-4,-,-,>100 µM
C[C@@H](CNC(=S)Nc1ccccn1)C1CCCCC1,EC50,p24,PBMC,-,IIIB,>1 µM
O=C(c1ccccc1)c1ccc2nc3n(c2c1)C(c1c(F)cccc1F)SC3,EC50,cytopathic effect / MTT,MT-4,-,IIIB,>1.3 µM
CC(=O)Oc1ccc(/C=C/C(=O)OCCOC(=O)/C=C/c2ccc(OC(C)=O)c(OC(C)=O)c2)cc1OC(C)=O,EC50,cytopathic effect / XTT,CEM + CEM-SS,-,RF,>6.7 µM
Cc1csc(NC(=S)N[C@H](C)c2cccc3ccccc23)n1,EC50,p24,PBMC,-,IIIB,0.001 µM
CC(C)(C)NC(=O)[C@@H]1CN(Cc2cccnc2)CCN1C[C@@H](O)C[C@@H](Cc1ccccc1)C(=O)N[C@H]1c2ccccc2C[C@H]1O,EC50,cytopathic effect / MTT,MT-4,-,IIIB,0.046 µM
COc1nc(=O)[nH]c2c1C(c1ccc(Cl)cc1)c1c(OC)nc(=O)[nH]c1O2,EC50,cytopathic effect,MT-4,-,L1,>347 µM
Cc1ccnc2c1NC(=O)c1cccnc1N2C1CC1,EC50,p24,PBMC,RT-Y181C K103N,NRTI resistant (RT Y181C K103N) A17 variant,>100 µM
OC[C@H]1[C@@H](O)[C@H](O)[C@H]2[C@@H](O)CCN21,EC50,syncytia,JM,-,GB8,>1000 µM
Cc1ccc(S(=O)(=O)CCn2c(=O)c(C)cn(C3CC(N=[N+]=[N-])C(CO)O3)c2=O)cc1,EC50,-,-,-,NL4-3,0.14 µM
C/C(Cn1cnc2c(N)ncnc21)=N\OCP(=O)(O)O,EC50,absorbance,MT-4,-,899A,100 µM
Cc1cn(C2CC(N=[N+]=[N-])C(CO)O2)c(=O)n(/C=C/C(=O)/C=C(\O)C2=NN=[N+](Cc3ccc(F)cc3)C2)c1=O,EC50,-,-,-,NL4-3,0.16 µM
CCc1cc(NCc2nc3c(Cl)ccc(Cl)c3o2)c(=O)[nH]c1C,EC50,p24,MT-4,RT-K103N,NL4-3,0.8 µM
Nc1nc(=O)n([C@@H]2C=C[C@H](CO)O2)cc1F,EC50,cytopathic effect / MTT,MT-2,-,IIIB,0.18 µM
N=C1Sc2cc(-c3ccsc3)ccc2C2=NCCCN12,EC50,MTT,MT-4,-,IIIB,0.43 µM
Cc1cn([C@H]2C[C@H](N=[N+]=[N-])[C@@H](CO)O2)c(=O)[nH]c1=O,EC50,-,CEM + CEM-SS,-,IIIB,0.01 µM
COc1ccc2nc3n(c2c1)C(c1c(F)cccc1F)SC3,EC50,cytopathic effect / MTT,MT-4,-,IIIB,>392 µM
CCC(NC(=S)Nc1ccc(Br)cn1)c1ccccc1,EC50,p24,PBMC,-,IIIB,0.001 µM
Nc1ncnc2c1ncn2C[C@@H](CO)OCP(=O)(O)O,EC50,cytopathic effect / trypan blue,MT-4,-,IIIB,>20 µM
Nc1ncnc2c1ncn2CCOCP(=O)(O)O,EC50,XTT,MT-2,-,IIIB,16 µM
Cc1cccc(NC(=S)NC[C@H](C)c2ccccc2)n1,EC50,p24,PBMC,RT-Y181C,NNRTI-resistant (RT Y181C) A17,1.4 µM
CC(C)(C)C(=O)OCOP(=O)(COCCn1cnc2c(N)ncnc21)OCOC(=O)C(C)(C)C,EC50,-,MT-2,-,IIIB,0.5 µM
COc1nc(=O)[nH]c2c1C(c1ccc(Br)cc1)c1c(OC)nc(=O)[nH]c1O2,EC50,cytopathic effect,MT-4,-,L1,>309 µM
C[C@@H](CNC(=S)Nc1ccc(Br)cn1)c1ccccc1,EC50,p24,PBMC,-,IIIB,0.003 µM
Cc1cn([C@H]2C[C@H](N=[N+]=[N-])[C@@H](COC(=O)CCCCCCCCCCCF)O2)c(=O)[nH]c1=O,EC50,-,CEM + CEM-SS,-,IIIB,0.124 µM
OC[C@@H]1[C@@H](O)[C@H](O)[C@H]2[C@@H](O)CCN21,EC50,syncytia,JM,-,GB8,>1000 µM
CC1=C[C@]23C(=O)[C@@H](C=C(CO)[C@@H](O)[C@]2(O)[C@H]1O)[C@H]1[C@@H](CC3C)C1(C)C,EC50,luminescence,MT-4,-,NL4-3,>10 µM
CC(=O)Oc1ccc(/C=C/C(=O)O[C@@H](C)[C@H](C)OC(=O)/C=C/c2ccc(OC(C)=O)c(OC(C)=O)c2)cc1OC(C)=O,EC50,cytopathic effect / XTT,CEM + CEM-SS,-,RF,>5.58 µM
Cc1cn([C@H]2C[C@H](N=[N+]=[N-])[C@@H](CO)O2)c(=O)[nH]c1=O,EC50,cytopathic effect,MT-4,-,NL4-3,0.005 µM
CC(C)CN(C[C@@H](O)[C@H](Cc1ccccc1)NC(=O)O[C@H]1CCOC1)S(=O)(=O)c1ccc(N)cc1,EC50,cytopathic effect / MTT,MT-4,-,IIIB,0.12 µM
Nc1nc2c(ncn2CC(CF)OCP(=O)(O)O)c(=O)[nH]1,EC50,cytopathic effect / trypan blue,MT-4,-,IIIB,13 µM
Cc1ccnc2c1NC(=O)c1cccnc1N2C1CC1,EC90,p24,MT-2,-,MN,1 µM
COc1cccc(-c2ccc3c(c2)SC(=N)N2CCCN=C32)c1,EC50,MTT,MT-4,-,IIIB,0.35 µM

Again, the opening 8 rows:

SMILES | read-out | method | cell line | changes | strain | result
C=C1[C@H](CO)[C@@H](O)C[C@@H]1n1cnc2c(=O)[nH]c(N)nc21 | EC50 | MTT | MT-4 | K103N + Y181C | RES056 | 0.034 µM
O=C(/C=C/c1ccc(O)c(O)c1)OCCOC(=O)/C=C/c1ccc(O)c(O)c1 | EC50 | cytopathic effect / XTT | CEM + CEM-SS | - | RF | >9.85 µM
CCC/C=C/c1ccc2c(c1)SC(=N)N1CCCN=C21 | EC50 | MTT | MT-4 | - | IIIB | 0.47 µM
Cc1cn([C@H]2C[C@H](N=[N+]=[N-])[C@@H](CO)O2)c(=O)[nH]c1=O | EC50 | p24 | PBMC | RT-M41L T215Y | R416-10 Clinical isolate ZDV-resistant | 0.3 µM
Cc1csc(NC(=S)NC[C@H](C)c2ccccc2)n1 | EC50 | p24 | PBMC | RT-Y181C K103N | NNRTI-resistant (RT Y181C K103N) A17V | 1.1 µM
Cc1cn(C2CC(N=[N+]=[N-])C(CO)O2)c(=O)n([N+](=O)[O-])c1=O | EC50 | - | - | - | NL4-3 | 0.032 µM
O=c1ccn([C@@H]2O[C@H](CO)C3(CO3)[C@H]2O)c(=O)[nH]1 | EC50 | RT activity | A301 + A3.01 | - | - | 22 µM
Nc1nc2c(ncn2CC(CO)OCP(=O)(O)O)c(=O)[nH]1 | EC50 | cytopathic effect / trypan blue | MT-4 | - | IIIB | >100 µM